Source: ChEMBL document CHEMBL3870339, “Burkholderia pseudomallei γ-carbonic anhydrase is strongly activated by amino acids and amines” (Bioorg Med Chem Lett, 2017)

Experiments:
[1] = test system: Burkholderia pseudomallei; assay: Activation of Burkholderia pseudomallei gamma carbonic anhydrase at 10 uM incubated for 15 mins prior to testing by stopped flow CO2 hydration assay
[2] = test system: Burkholderia pseudomallei; assay: Activation of Burkholderia pseudomallei gamma carbonic anhydrase assessed as Kcat at 10 uM incubated for 15 mins prior to testing by stopped flow CO2 hydration assay
[3] = biological target: T1, Carbonic anhydrase (Methanosarcina thermophila) (UniProt P40881); assay: Activation of recombinant Methanosarcina thermophila gamma carbonic anhydrase at 10 uM incubated for 15 mins prior to testing by stopped flow CO2 hydration assay
T1 sequence (whole entry): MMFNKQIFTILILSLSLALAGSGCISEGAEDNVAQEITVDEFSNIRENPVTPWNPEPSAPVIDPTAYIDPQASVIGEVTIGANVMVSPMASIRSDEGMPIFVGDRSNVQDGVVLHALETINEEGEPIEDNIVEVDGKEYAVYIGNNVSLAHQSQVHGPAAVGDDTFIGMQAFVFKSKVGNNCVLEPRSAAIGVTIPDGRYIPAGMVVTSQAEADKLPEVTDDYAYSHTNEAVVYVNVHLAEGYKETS

SMILES	KA [1] [µM]	kcat [2]	KA [3] [µM]
N[C@@H](Cc1ccccc1)C(=O)O	1.73	9.82 ×10⁵ /s	68
N[C@H](Cc1ccccc1)C(=O)O	0.13	1.49 ×10⁶ /s	42
